18 molecules from patent US20220306729A1 (published 2022) can be followed below.

For experiment [1], the target named is T1, WNV EDIII, polyhistidine-AviTag (West Nile virus).
T1 chain: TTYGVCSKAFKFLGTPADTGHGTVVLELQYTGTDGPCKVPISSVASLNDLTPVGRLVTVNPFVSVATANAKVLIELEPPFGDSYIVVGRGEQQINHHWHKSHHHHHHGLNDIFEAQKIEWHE
Put plainly: ELISA on EDIII (Table A).

For experiment [2], the target named is T2, DENV1 EDIII, polyhistidine-AviTag, made in HEK-293-6E cells (Dengue virus 1 (NC_001477)).
T2 construct: also called EDIII of DENV1
T2 chain: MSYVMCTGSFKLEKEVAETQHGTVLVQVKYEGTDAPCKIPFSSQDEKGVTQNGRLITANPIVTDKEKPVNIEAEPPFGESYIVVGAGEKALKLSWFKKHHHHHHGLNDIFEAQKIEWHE
Put plainly: ELISA on EDIII (Table A). A general note: ELISA stands for enzyme-linked immunosorbent assay.

B1: Z002 (MEX18_27) (antibody, V domains shown)
VH: EVQLLESGGGLVQPGGSLRLSCATSGFTFSTYAMSWVRQAPGKGLEWVSSFSGVDDSTYYAESVKGRFTISRDNSKNTVYLQMTRLRAEDTAVYYCAKDRGPRGVGELFDSWGQGTLVTVSS
VL: DIQMTQSPSTLSASVGDRVTMTCRASQSINRWLAWYQQKPGKAPKLLIYTTSTLKSGVPSRFSGSGSGTEFTLTISSLQPDDFATYYCQHFHSVPWTFGQGTKVEIK
As to B1, the binding result is “no binding” in experiment [1] and “binds” in experiment [2].

B2: Z003 (MEX18_58) (antibody, V domains shown)
VH: EVQLLESGGGLVQPGGSLRLSCATSGFTFTTFAMSWVRQAPGKGLEWVSSISGADDSTYYAASVKGRFTISRDNSRSTLFLQMNSLRAEDTAVYYCAKDRGPRGVGELFDSWGQGTLVTVSS
VL: DIQMTQSPSTLSASVGDRVTITCRASQSISKWLAWYQQKPGKAPRLLIYTTSTLKSGVPSRFSGSGSGTEFTLTISSLQPDDFATYYCQHFFSVPWTFGQGTKVEIK
As for B2, the binding result in experiment [1] is reported as “no binding”; in experiment [2], “binds”.

B3: Z011 (MEX105_15) (antibody, V domains shown)
VH: EVQLLESGGGLVQPGGSLRLSCAASGFTFRTYAMSWVRQPPGKGLEWVSSISAREDSTYFAASVRGRFTISRDNSKNTLYLQMNNLRAEDTALYYCAKDRLQLGVGELYESWGQGTLVTVSS
VL: DIQMTQSPSTLSASVGDRVTITCRASQNINSWLAWYQQKPGKAPKLLIYMASSLQSGVPSRFSGSGSGTEFTLTVSSLQPDDFATYYCQHYHSYPWTFGQGTKVEIK
For B3, the binding result in experiment [1] is reported as “no binding”; in experiment [2], “binds”.

B4: Z034 (BRA112_09) (antibody, V domains shown)
VH: EVQLLESGGGLAQPGGSLRLSCETSGFTFRSYGMGWVRQAPGKGLEWVSSIYISGDSTYYAASVKGRFTISRDNSKSTLYLQMDRLTAEDTAVYYCVRDRIQGGFGELYRYWGQGTLVTVSS
VL: DIQMTQSPSTLSASVGDRVTMTCRASQSVNKWLAWYQQKPGKAPKLLIYETSILESGVSSRFSGSGSGTEFTLTISSLQPDDFATYYCQHYHGYPWTFGQGTKVEIK
Consider B4, for which the binding result in experiment [1] was “no binding”; in experiment [2], “binds”.

B5: Z005 (MEX18_13) (antibody, V domains shown)
VH: EVQLLESGGGLVQPGGSLRLSCAASGFTFSSYAMSWVRQAPGKGLEWVSSFSGIDDSTWYADSVKGRFTISRDNSKSTLYLQMNSLRAEDTAVYYCAKDRLVRGFAEVLDYWGRGTLVTVSS
VL: DIQMTQSPSSLSASVGDRVTITCRASQDISKYLAWYQQRPGKVPNLLIYTASTLQSGVPSRFSGSGSGTHFTLTISSLQPEDVATYYCQKYNSVPWTFGQGTKVEIK
B5: the binding result in experiment [1] is recorded as “no binding”; in experiment [2] it was “binds”.

B6: Z017 (MEX84_p2-58) (antibody, V domains shown)
VH: QVQLVQSGAGMRKPGASVKVSCKASGYSFNDYYIHWVRQAPGQGLEWMGWINPKSGFTNYAQRFQGRVTMTGDTSNSVAYMELTRLTSDDTAVYYCARGGRINAPLGFDPWGQGTLVTVSS
VL: EIVLTQSPDTLSLSPGETATLSCRASQSIGSISLGWYQQKFGQAPRLLIYGASTRATGTPDRFSGSGSETDFTLTISRLEPEDSAVYYCQQYVSSPLRFGGGTKVEIK
Consider B6, for which the figures for the binding result in experiment [1] and in experiment [2] were “binds” and “no binding”, respectively.

B7: Z056 (MEX84_p2-94) (antibody, V domains shown)
VH: EVQLVQSGAEVKKPGASVKVSCKASGNTFMGYYFHWVRQAPGQGLEWMGWINPNSGHANIAQTFQGRVTMTRDPSITTAYMELSRLRSDDTAVFYCARGGMLGQLWALDNWGQGTLVTVSS
VL: DIQMTQSPSTLSASVGDRVTITCRASQSISHWLAWYQQRPGEAPKLLIYQASTLESGVPSRFSGSGSGTEFTLSISSLQPDDFATYYCQQYQSSPYTFGQGTKLEIK
As to B7, the binding result is given as “binds” in experiment [1] and “no binding” in experiment [2].

B8: Z013 (MEX18_84) (antibody, V domains shown)
VH: EVQLLESGGGLVQPGGSLRLSCAASGFTFTSYAMNWVRQAPGKGLEWVSGIGGRGAIAGDGSIYYADSVKGRFTISRDNSKNIVYLQMNGLRVEDTAVYYCAKDRVAFDGFHVWGQGTLVTVSS
VL: DIQMTQSPPTLSASVGDRVTITCRASQSISSWLAWYQQKPGKAPKLLIYKASSLESGVPSRFSGSGSGTEFSLTISSLQPEDFATYYCQQYNSYPWTFGQGTKVEIK
Turning to B8, the binding result in experiment [1] is recorded as “no binding”; in experiment [2], “binds”.

B9: Z057 (MEX84_p4-54) (antibody, V domains shown)
VH: EVQLVQSGAEVKRPGASVKVSCKASGYTFADYYIHWVRQAPGLGLEWMGWINPKTGFSHYEQTFQGRVTMARDTSIPAAYMELSSLKSDDTAIYYCARGGRINVAEALRYWGQGSLVTVSS
VL: DIQMTQSPSTLSTFVGDRVTITCRASQTIGDWLAWYQQKPGKAPKLLISKATRLESGVPSRFSGSGSETEFSLTINSLQPDDVAAYYCQQYMSYPWTFGQGTKLEIK
In the case of B9, the binding result in experiment [1] is recorded as “binds”; in experiment [2], “no binding”.

B10: Z055 (MEX84_p4-61) (antibody, V domains shown)
VH: EVQLVQSGAEVKKPGASVKVSCKASGYTFSGYYIHWLRQAPGQGLEWMGWINSNSGGADSGPRFHGRVTMTRDTSINTAYLELTNLRSDDTAVYYCARRTYYDTRFPYWYFDLWGRGTLVTVSS
VL: AIRMTQSPSSLSASVGDRVTITCRASQDIGSYLNWYQQKPGKAPNVLISAASTLQSGVPSRISGIGSGTDFTLTISSLQPEDFATYYCQQSLSAPYTFGQGTKLEIK
With B10, the binding result in experiment [1] is given as “binds”; in experiment [2], “no binding”.

B11: Z059 (MEX84_p4-34) (antibody, V domains shown)
VH: EVQLVQSGAEVKTPGSSVKVSCKTSGGTFSNFAITWVRQAPGQGLEWMGGIIPLFGITNYTQKFQGRVTITTDESKTTAYMDLSGLRSEDTAVYFCARGRDSSGRLLDHWGQGTLVTVSS
VL: EIVMTQSPATLSVSPGERATLSCRASQTVNRNLAWYQQKPGQAPRLLIYAASARATGVPARFSGSGSGTEFTLTISSLQSEDFVVYYCQQYNNWPPLTFGGGTKLEIK
Regarding B11, the binding result in experiment [1] is recorded as “binds”; in experiment [2] it was “no binding”.

B12: Z007 (MEX105_50) (antibody, V domains shown)
VH: EVQLLESGGGLVRPGGSLRLSCTASGFTFRRYAMAWVRQAPGKGLEWVSLIYDGDDSTYYAKSVKGRFAISRDNSKNTLSLQMNSLRAEDTAVYYCVKDRDNGWSSIVDWGQGTLVTVSS
VL: DIQMTQSPSTLSASVGDRVTITCRASHSISGWLAWYQQKPGKAPKLLIYQASILESGVPSRFSGSGSGTEFTLTIGSLQPEDFATYFCQQYSTFWTFGQGTKVEIK
For B12, the binding result in experiment [1] is given as “no binding”; in experiment [2], “binds”.

B13: Z008 (MEX105_60) (antibody, V domains shown)
VH: EVQLLESGGGLVRPGGSLRLSCTASGFTFRRFAMAWVRQAPGKGLEWVSLIWNGDDSTYYAESVRGRFTISRDNSHNTLSLQMRSLRAEDTAIYYCVKDRDNGWSSIVDWGQGTLVTVSS
VL: DIQMTQSPSTLSASVGDRVTITCRASQTIGNWLAWYQQKPGKAPKLLIYQASVLESGVPSRFSGSGSGTEFTLTISSLQPEDFATYFCQQYSTFWTFGQGTKVEIK
As for B13, the results for the binding result in experiment [1] and in experiment [2] were “no binding” and “binds”, respectively.

B14: Z009 (MEX105_64) (antibody, V domains shown)
VH: EVQLLESGGGLVRPGGSLRLSCTASGFTFRRYAMAWVRQAPGKGLEWVSLIYNGDDSTYYAESVKGRFTVSRDNSQNTLSLQMNSLRAEDTAIYYCVRDRDNGWSSIVDWGQGTLVTVSS
VL: DIQMTQSPSTLSASVGDRVTITCRASRTIGSWLAWYQQKPGKAPKLLIYQASILEGGVPSRFSGSVSGTEFTLTIRSLQPEDFATYFCQQYSTFWTFGQGTKVEIK
In the case of B14, the results for the binding result in experiment [1] and in experiment [2] were “no binding” and “binds”, respectively.

B15: Z016 (MEX84_p2-55) (antibody, V domains shown)
VH: QVQLVQSGAEVKKPGASVKLSCKASGYTFTSYYVHWVRQAPGQGLEWMGIINPGNNFVSFAQNFYDRATMTRDTSTNTVYMELTNLQSEDTAVYYCARTLVAPSAQSMYYFDFWGQGTLVTVSS
VL: EIVLTQSPGTLSLSPGERGTLSCRASQYITTGHFAWYQQKPGRAPRLLIYGASVRATGVPDRFSGSGAETDFTLTISRLDPEDVGVYYCQQYGSSPVTFGPGTKVDIK
Turning to B15, the binding result is “binds” in experiment [1] and “no binding” in experiment [2].

B16: Z050 (BRA138_28) (antibody, V domains shown)
VH: QVQLVQSGAEVKKPGSSVKVSCKAPGGTFSRYSIAWVRQAPGQGLEWMGGINPTFTTPNYAQKFQGRVTITADESTNTAYLDLSSLRSEDTAVYYCARFRYYYESGGYSDASPYYLDYWGQGTLVTVSS
VL: EIVLTQSPATLSLSPGERVTLSCRASQSVSSYLAWYQQKPGQAPRLLIYDASNRATGIPARFTGSGSGTDFTLTISSLEPEDFAVYYCQQRSNWPLTFGGGTKVEIK
Consider B16, for which the binding result in experiment [1] is listed as “binds”; in experiment [2], “no binding”.

B17: Z052 (BRA138_62) (antibody, V domains shown)
VH: QVQLQESGPGLVKPSQTLSLTCTVSGGSITGGVYYWNWIRHHPGKGLEWIGYMFYSGDTDYNPSLRSRVTISGDTSKNKFSLNLNSVTAADTAVYYCARAGFDYGSPVSAFDIWGQGTLVTVSS
VL: EIVLTQSPATLSLSPGERATLSCRASQSVSSTYLVWYQQKPGQAPRLLIYGASSRATGIPDRFSGSGSGTDFTLTISRLEPEDFAVYFCQQYAHSPRGYTFGQGTKLEIK
With B17, the binding result in experiment [1] was “binds”; in experiment [2], “no binding”.

B18: Z036 (BRA112_91) (antibody, V domains shown)
VH: EVQLLESGGDLVQPGGSLRLSCAASGFTFSTYGMAWVRQAPGKGLEWLSSISSVDDSKYYAASVKGRFTISRDNSRNTLYLHMNSLRVDDTAVYYCAKDRIPHGLGELYANWGQGTLVTVSS
VL: DIQMTQSPSTLSASVGDRVTITCRASQSISGWLAWYQQKPGKAPRLLMHKASNLYSGVPSRFSGSGSGTEFTLTISSLQPDDFATYYCQHYHSYPYTFGQGTKVEIK
For B18, the binding result in experiment [1] is given as “no binding”.
